Measurements reported in PubChem BioAssay AID1224833 (University of Georgia, 2016)
Shown is one part, drawn at random, of about 12,000 reagents tested. Of all reagents, about 5,600 (46%) were called active. 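Active calls cover z-scores past 1 in both directions, so they include lowered as well as raised rotavirus replication.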 A number with no mark means an inactive call.

Test: 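Human genes whose knock-down alters rotavirus replication in monkey cells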 (primary screen)
System: monkey MA104 kidney cells
Knock-down reagent: siRNA pool against human genes, 50 nM
Time to read-out: 48 h knock-down before infection; read 24 h after infection
Conditions: infection with rotavirus strain RV3 two days after transfection; infectious dose for this stage not given
Measurement: 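Rotavirus antigen per well by fluorescent immunoassay, normalised to non-targeting control wells on each plate and given as a standard z-score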
Reading the numbers: z-score vs non-targeting control: higher = more rotavirus replication than with non-targeting control
Call rule: In these data the active calls have z-score vs non-targeting control at about -1 or lower, or at about 1 or higher
Meaning of the calls: active = z-score beyond 1 either way; inactive = z-score within 1 of zero

The first 12 entries, to show the layout:
no.	Target gene	z-score vs non-targeting control
1	ZNF90	-1.08 (active)
2	ZNF280B	1.39 (active)
3	COL4A2	-0.738
4	ZNF532	-0.549
5	ZDHHC22	0.979
6	ZNF226	-0.794
7	NKG7	-0.108
8	PCDHGA12	0.356
9	USP46	0.725
10	KRT19	0.325
11	SLC7A14	0.861
12	EHD1	-1.62 (active)

The listing, from the start:
no.	Target gene	z-score vs non-targeting control
1	ZNF90	-1.08 (active)
2	ZNF280B	1.39 (active)
3	COL4A2	-0.738
4	ZNF532	-0.549
5	ZDHHC22	0.979
6	ZNF226	-0.794
7	NKG7	-0.108
8	PCDHGA12	0.356
9	USP46	0.725
10	KRT19	0.325
11	SLC7A14	0.861
12	EHD1	-1.62 (active)
13	PNLIP	0.633
14	FOSL2	0.911
15	NUDCD1	0.904
16	VIPAS39	0.561
17	EVX2	-1.56 (active)
18	DIRAS1	2.58 (active)
19	TMEM69	-2.39 (active)
20	NUP155	0.0002
21	ARC	-1.33 (active)
22	HSPB3	-0.0161
23	TEX11	-0.0827
24	ANO2	-0.0308
25	TUBB1	0.587
26	TMEM132E-DT	0.466
27	TTC7A	1.54 (active)
28	NSUN4	-1.2 (active)
29	HNRNPH1	1.31 (active)
30	RPS16	-0.226
31	DIRAS3	-1.3 (active)
32	SLC4A1AP	-1.72 (active)
33	SLC46A2	-1.91 (active)
34	JHY	0.51
35	SH2D3C	1.16 (active)
36	UVSSA	0.689
37	FAM24B	-0.592
38	NPY2R	-0.676
39	LDB3	-1.32 (active)
40	ASAP3	-1.15 (active)
41	ITGA8	-2.04 (active)
42	ZNF561	-0.156
43	OR5B2	0.552
44	BRF1	-0.952
45	SLC25A41	-1.11 (active)
46	ZNF213	-1.31 (active)
47	MRPL48	-0.406
48	PELI2	0.289
49	OR10H3	-0.586
50	HIGD1B	-0.03
51	OLR1	0.679
52	ZWILCH	-0.742
53	GPR143	0.84
54	COX16	0.95
55	FAR2	2.46 (active)
56	CDCA7L	0.805
57	LEF1	-2.4 (active)
58	ZBTB39	-0.0725
59	ZFP36	-0.934
60	TNNC2	0.414
61	FSCN1	-0.388
62	NEO1	-0.709
63	PCSK6	0.602
64	ATP6V0A2	0.229
65	TDRD1	-1.04 (active)
66	CCNI	-1.04 (active)
67	ESS2	-1.49 (active)
68	FAM222A	-0.902
69	CHI3L2	-0.971
70	GPR15LG	1.66 (active)
71	FETUB	1.9 (active)
72	RXFP4	-0.533
73	SLC5A5	-3.02 (active)
74	RELCH	0.425
75	CA10	-1.05 (active)
76	GTSF1L	-1.69 (active)
77	TMEM123	0.376
78	TIGD7	-1.6 (active)
79	SLC60A2	2.11 (active)
80	CA13	1.33 (active)
81	FOXJ2	-1.16 (active)
82	DYNLT2	-0.0423
83	GFAP	1.99 (active)
84	HP1BP3	-0.404
85	RAD51B	-1.19 (active)
86	MBNL2	0.909
87	NUDT22	-2.35 (active)
88	SF3A3	0.393
89	ANKH	-1.21 (active)
90	GARIN2	-0.806
91	NIPA1	0.155
92	SMR3B	0.554
93	CRYBB1	-0.761
94	FSIP2	-1.64 (active)
95	COL6A3	-0.654
96	OR2M2	0.185
97	JAM3	0.536
98	C7	-1.04 (active)
99	VPS26C	0.288
100	CRTC3	-2.14 (active)
101	GPR151	1.6 (active)
102	TP53BP1	0.754
103	SH3BGRL	0.514
104	ATP2A2	-1.18 (active)
105	PPP6R2	0.194
106	MYPN	-0.236
107	FGD4	0.432
108	WDR5B	-0.218
109	FAM111B	0.275
110	MPND	1.01 (active)
